Data as given in PubChem BioAssay AID504761 (Drosophila RNAi Screening Center, 2011)

Assay: 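Genome-wide fly cell screen for genes dengue virus requires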 (primary screen)
Cells: D.Mel-2 cells from Drosophila
Knock-down reagent: long dsRNA against Drosophila genes
Conditions: infection with dengue virus type 2; dose and infection time not stated
Measured: 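Cells stained for dengue envelope protein and imaged; percent of infected cells per well on duplicate plates, ranked by infection, with stained nuclei counted for cell number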
Direction: infection score: higher = more virus-infected cells; cell count: higher = more cells in the well
Call rule: 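Very low infection ranking in both replicate wells (chance probability at most 0.065), then a retest showing infection dropped 1.5-fold or more at p below 0.05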
Meaning of the calls: active = confirmed: knock-down lowers infection; inactive = not picked or not confirmed
In all, the deposit lists about 22,000 reagents; this is a random part of those that have a named target and a result. Over the whole deposit, 116 (0.52%) are marked active. 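Calls depend on retest data that are not deposited; infection was ranked per plate without normalising between plates; the unit of the infection score is not given.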 The raw values are shown without normalisation. A number with no mark means an inactive call. The numbers tell different reagents against one gene apart. Not all columns of the deposit are shown. Reagent sequences are not shown. The record does not give: the amount of reagent, the time to read-out.

HPS1 (Hermansky-Pudlak Syndrome 1): infection score, replicate 1 = 16.5; cell count, replicate 1 = 6054
Phax (Phosphorylated adaptor for RNA export): infection score, replicate 1 = 7.32; cell count, replicate 1 = 6067
Bdbt (Bride of doubletime): infection score, replicate 1 = 7.42; cell count, replicate 1 = 6106
CG7255: infection score, replicate 1 = 12.8; cell count, replicate 1 = 5954
Fancm (Fanconi anemia group M helicase): infection score, replicate 1 = 2.34; cell count, replicate 1 = 6504
l(3)mbt (lethal (3) malignant brain tumor) #1: infection score, replicate 1 = 2.54; cell count, replicate 1 = 5903
l(3)mbt (lethal (3) malignant brain tumor) #2: infection score, replicate 1 = 4.89; cell count, replicate 1 = 5802
CG13603: infection score, replicate 1 = 2.31; cell count, replicate 1 = 6333
Usp7 (Ubiquitin-specific protease 7) #1: infection score, replicate 1 = 3.19; cell count, replicate 1 = 6173
Usp7 (Ubiquitin-specific protease 7) #2: infection score, replicate 1 = 2.14; cell count, replicate 1 = 6691
Usp7 (Ubiquitin-specific protease 7) #3: infection score, replicate 1 = 21; cell count, replicate 1 = 5081
sbr (small bristles) #1: infection score, replicate 1 = 5.31; cell count, replicate 1 = 6397
sbr (small bristles) #2: infection score, replicate 1 = 5.07; cell count, replicate 1 = 848
sbr (small bristles) #3: infection score, replicate 1 = 12.9; cell count, replicate 1 = 3672
